A mixed list of measured activities; the numbers were collected in NIAID ChemDB.

All rows: whole-cell or culture tests; agent: Herpes simplex virus 1; cell line: VERO; endpoint: EC50

ECn: concentration that inhibits the pathogen or its effect by n%. Lines come from different laboratories, so protocols vary. Blank or dashed fields: not listed here.

| smiles | strain | method | value |
|---|---|---|---|
| Cc1cn([C@@H]2O[C@H](CO)[C@@H](O)[C@@H]2F)c(=O)[nH]c1=O | F-FAU-C2 | plaque count | 3.3 µM |
| O=c1cc(-c2ccc(-c3ccccc3)cc2)oc2ccccc12 | KOS |  | 2.4 µg/mL |
| Nc1ncnc2nc(-c3cscn3)[nH]c12 |  | plaque count | >100 µg/mL |
| O=C(O)P(=O)(O)O | F-FIAU-C1 | plaque count | 32 µM |
| CC(C)Nc1nc(N)nc2c1ncn2/C=C1/C[C@@H]1CO |  | plaque count | 38 µM |
| Nc1nc2c(ncn2COCCO)c(=O)[nH]1 |  |  | 0.8 µg/mL |
| Nc1nc2c(ncn2CCC(CO)CO)c(=O)[nH]1 | KT1 | plaque count | 2.3 µM |
| O=c1[nH]c(=O)n([C@@H]2O[C@H](CO)[C@@H](O)[C@@H]2F)cc1I | F-FAU-C2 | plaque count | 7.8 µM |
| C=Cc1cn(OC(CO)CO)c(=O)[nH]c1=O | KOS (TK+) | plaque count | >25 µg/mL |
| Cc1cn(N2C[C@H](CO)[C@H]2CO)c(=O)[nH]c1=O |  | plaque count | >10 µg/mL |
| COc1ccc(-c2snc(SC)c2C#N)cc1 | F strain | plaque count | >10 µM |
| Nc1nc2c(ncn2CC[C@@H](O)CO)c(=O)[nH]1 | C42 | plaque count | 2.1 µM |
| S=c1cc(-c2ccccc2)s[nH]1 | F strain | plaque count | >90 µM |
| COc1cccc2c1C(=O)c1c(O)c3c(c(O)c1C2=O)C[C@@](O)(C(C)=O)C[C@@H]3O[C@H]1C[C@H](N(C)C)[C@H](O)[C@H](C)O1 |  | virus yield | >1 µM |
| NC1=NCCN1CC(=O)O | F | cytopathic effect | 8600 µM |
| NC(N)=N/N=C1/C/C(=N\N=C(N)N)c2cc3ccccc3cc21 | 13 | virus yield | 2 µM |
| Nc1nc2c(ncn2COCCO)c(=O)[nH]1 |  | plaque count | 1.9 µg/mL |
| Cc1ccc(C2NC(=O)C3NC(=O)C(c4cc(O)cc(O)c4)NC(=O)C(NC(=O)C(N)Cc4ccc(O)cc4)Cc4c[nH]c5cc(ccc45)-c4cc3cc(c4O)Oc3ccc(cc3)CC(C(=O)NC(C(=O)O)c3ccc(O)c(O)c3)NC2=O)cc1Cl | KOS |  | 44 µg/mL |
| Nc1ncnc2c1ncn2[C@@H]1C[C@H](CO)[C@@H](O)[C@@H]1O | F-FAU-C2 | plaque count | 54 µM |
| O=c1[nH]c(=O)n([C@H]2C[C@H](O)[C@@H](CO)O2)cc1I | ICI | plaque count | 1 µM |
| Nc1nc2c(ncn2CSC(CO)CO)c(=O)[nH]1 | ICI | plaque count | 6.9 µM |
| Nc1nc2c(ncn2N2C[C@H](CO)[C@H]2CO)c(=O)[nH]1 |  | cytopathic effect | 5.36 µg/mL |
| C/C1=C\C=C\C2(C)C=C(CO[C@H]3O[C@H](CO)[C@H](O)[C@H](O)[C@H]3O)C(C)CC23OC([O-])C(C3=O)C(O)/C=C/C2(C)C=C(C=O)C(C)CC23OC([O-])C(C3=O)C(O)/C(C)=C/C=C/C2C=C(CO[C@H]3O[C@H](CO)[C@H](O)[C@H](O)[C@H]3O)C(C)CC23OC([O-])C(C3=O)C(O)/C=C/C2(C)C=C(C=O)C(C)CC23OC([O-])C(C3=O)C1O | KOS | cytopathic effect | 11 µg/mL |
| Nc1nc(=O)n([C@@H]2O[C@H](CO)[C@@H](O)[C@@H]2F)cc1I | 77 | plaque count | 0.12 µM |
| CC[C@@H](C(C)C)[C@@H](O)[C@H](O)[C@@H](C)[C@H]1CC[C@H]2[C@@H]3CC(=O)[C@H]4C[C@@H](Br)CC[C@]4(C)[C@H]3CC[C@]12C | F | plaque count | 53.3 µM |
| Nc1nc2c(ncn2COCCO)c(=O)[nH]1 | ICI | plaque count | 1.5 µM |
| C/C1=C\C=C\C2(C)C=C(CO)C(C)CC23OC([O-])C(C3=O)C(O)/C=C/C2(C)C=C(CO)C(C)CC23OC([O-])C(C3=O)C(O)/C(C)=C/C=C/C2C=C(CO)C(C)CC23OC([O-])C(C3=O)C(O)/C=C/C2(C)C=C(C=O)C(C)CC23OC([O-])C(C3=O)C1O | KOS | cytopathic effect | 35 µg/mL |
| CC[C@H](/C=C/[C@@H](C)[C@H]1CC[C@H]2[C@@H]3CC=C4C[C@@H](O)CC[C@]4(C)[C@H]3CC[C@]12C)C(C)C | F | plaque count | 48.8 µM |
| Nc1nc2c(ncn2N2C[C@H](CO)[C@H]2CO)c(=O)[nH]1 |  | cytopathic effect | 5.36 µg/mL |
| N#Cc1csnc1-c1ccccc1 | F strain | plaque count | >100 µM |
| C/C1=C\C=C\C2(C)C=C(CO)C(C)CC23OC([O-])C(C3=O)C(O)/C=C/C2(C)C=C(C=O)C(C)CC23OC([O-])C(C3=O)C(O)/C(C)=C/C=C/C2C=C(CO)C(C)CC23OC([O-])C(C3=O)C(O)/C=C/C2(C)C=C(C=O)C(C)CC23OC([O-])C(C3=O)C1O | KOS | cytopathic effect | 92 µg/mL |
| Cc1cn([C@@H]2O[C@H](CO)[C@@H](O)[C@@H]2F)c(=O)[nH]c1=O | V3 | plaque count | 0.85 µM |
| Nc1ccn(N2C[C@H](CO)[C@H]2CO)c(=O)n1 |  | cytopathic effect | >100 µg/mL |
| CCOC(=O)c1ccc(OCCCCc2cc(C=O)n(C)c2)cc1 |  | plaque count | >55 µM |
| CC[C@@H](C(C)C)[C@@H](O)[C@H](O)[C@@H](C)[C@H]1CC[C@H]2[C@@H]3CC(=O)[C@H]4C[C@H](O)[C@H](O)C[C@]4(C)[C@H]3CC[C@]12C | F | plaque count | 41.3 µM |
| Nc1ncnc2c1ncn2COCCO | ICI | plaque count | 40 µM |
| Nc1nc(=O)n([C@@H]2O[C@H](CO)[C@@H](O)[C@@H]2F)cc1I | F-AMAU-C2 | plaque count | 8 µM |
| Nc1ncnc2c1ncn2[C@@H]1O[C@H](CO)[C@@H](O)[C@@H]1O | ICI | plaque count | 16 µM |
| Cc1cn(C2C[C@@H](CO)[C@@H](CO)S2)c(=O)[nH]c1=O |  | cytopathic effect | >100 µg/mL |
| C=C(C)[C@@H]1CC[C@]2(CO)CC[C@]3(C)[C@H](CC[C@@H]4[C@@]5(C)CC[C@H](O)C(C)(C)[C@@H]5CC[C@]43C)[C@@H]12 | F | plaque count | 0.4 µg/mL |